Measured values taken from US20240317834A1, “COMPOSITIONS AND METHODS FOR NEUROLOGICAL DISEASES” (CODA BIOTHERAPEUTICS, published 2024).
Substitutions are numbered along the chain they refer to.

Experiments:
[1] = biological target: T1, CODA536 (L131D, S172D in SEQ ID NO: 33) (human (chimera of human α7-nAChR and …))
T1 chain: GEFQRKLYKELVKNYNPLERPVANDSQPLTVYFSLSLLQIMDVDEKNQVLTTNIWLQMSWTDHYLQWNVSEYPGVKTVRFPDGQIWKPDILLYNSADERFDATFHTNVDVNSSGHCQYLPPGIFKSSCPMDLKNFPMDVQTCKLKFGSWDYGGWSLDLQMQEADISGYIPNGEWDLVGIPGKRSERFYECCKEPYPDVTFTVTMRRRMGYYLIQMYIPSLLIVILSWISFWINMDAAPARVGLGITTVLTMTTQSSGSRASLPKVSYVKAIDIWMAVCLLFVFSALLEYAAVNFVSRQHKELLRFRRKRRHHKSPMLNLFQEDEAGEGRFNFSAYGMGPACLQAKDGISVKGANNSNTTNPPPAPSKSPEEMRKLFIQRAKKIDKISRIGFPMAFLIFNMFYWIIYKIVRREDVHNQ

[2] = biological target: T2, CODA1048 (R101F, Y210F in SEQ ID NO: 33) (human (chimera of human α7-nAChR and …))
T2 chain: T1 chain with R79F, D109L, D150S, Y188F

[3] = biological target: CODA1073
[4] = biological target: T3, CODA283 (Y115E_N379K in SEQ ID NO: 33) (human (chimera of human α7-nAChR and …))
T3 chain: T1 chain with Y93E, D109L, D150S, N357K

[5] = biological target: T4, CODA339 (L131D in SEQ ID NO: 33) (human (chimera of human α7-nAChR and …))
T4 chain: T1 chain with D150S

[6] = biological target: T5, CODA342 (L131R in SEQ ID NO: 33) (human (chimera of human α7-nAChR and …))
T5 chain: T1 chain with D109R, D150S

[7] = biological target: T6, CODA409 (Y210W in SEQ ID NO: 33) (human (chimera of human α7-nAChR and …))
T6 chain: T1 chain with D109L, D150S, Y188W

B1: α-bungarotoxin conjugated to Alexa Fluor 647 (ligand)
chain: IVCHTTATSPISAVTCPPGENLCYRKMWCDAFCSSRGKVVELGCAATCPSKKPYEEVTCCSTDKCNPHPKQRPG
Normalized AB % [1]: 0.48 ratio to SEQ ID NO: 33 control | Normalized AB MFI [1]: 0.87 ratio to SEQ ID NO: 33 control | Normalized AB % [2]: 0.55 ratio to SEQ ID NO: 33 control | Normalized AB MFI [2]: 0.57 ratio to SEQ ID NO: 33 control | Normalized AB MFI [3]: 0.7 ratio to SEQ ID NO: 33 control | Normalized AB MFI [4]: 1.31 ratio to SEQ ID NO: 33 control | Normalized AB MFI [5]: 1.41 ratio to SEQ ID NO: 33 control | Normalized AB % [6]: 0.61 ratio to SEQ ID NO: 33 control | Normalized AB MFI [6]: 1.24 ratio to SEQ ID NO: 33 control | Normalized AB % [7]: 0.88 ratio to SEQ ID NO: 33 control | Normalized AB MFI [7]: 0.62 ratio to SEQ ID NO: 33 control
